## Sequence variants of PSTVd loop 6 after infection

Values reported by Wu et al. 2024 (doi:10.1371/journal.ppat.1012142).

Region: loop 6 of PSTVd (intermediate strain), upper and lower strand joined, each 5' to 3', the first 5 letters being the upper strand, closing pairs included. Wild type: UGACCGCGAG. Varied positions (N): UNNNCGNNNG.

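Three N. benthamiana plants were inoculated with the whole mutant pool. Samples came from the inoculated region at 5 days, the leaf margin at 10 and upper systemic leaves at 12.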

Numbers give reads per thousand; 0 = not seen among the reads, higher = more abundant. Each site shows the three plants. "Pool" is the share in the plasmid pool used as inoculum, on the same scale. The inoculated region was read from the minus strand, the other sites from the plus strand. IR is the inoculated region, LM the leaf margin, Sys the systemic leaves.

sequence,pool,IR,LM,Sys
UAUUCGUUCG,0.301,0.122 0.0719 0.0738,0 0 0,0 0 0
UAUUCGUUGG,0.353,0.0174 0.0359 0.0553,0 0 0,0 0 0
UAUUCGUUUG,0.471,0.122 0.0898 0.0553,0.0276 0 0.0232,0 0 0
UAUUCUGUGG,0.0131,0 0 0,0 0 0,0 0 0
UCAACACGGG,0.0131,0 0 0,0 0 0,0 0 0
UCAACGAAAG,0.0654,0.469 0.575 0.479,0.0552 0.0504 0.116,0 0 0
UCAACGAACG,0.261,0.851 0.503 0.443,0.0552 0.126 0.139,0 0 0
UCAACGAAGG,0.0784,0.0695 0.0898 0,0 0 0.0232,0 0 0
UCAACGAAUG,0.183,0.0348 0.0359 0.111,0.0276 0 0,0 0 0
UCAACGACAG,0.248,0.0695 0.0898 0.0553,0 0 0,0 0 0
UCAACGACCG,0.157,0.104 0.0719 0.0922,0 0 0,0 0 0
UCAACGACGG,0.196,0.0521 0.0539 0.0738,0 0 0.0232,0 0 0
UCAACGACUG,0.222,0.191 0.0359 0.0553,0 0 0,0 0 0
UCAACGAGAG,0.288,0.765 0.736 0.277,0.0552 0.0504 0.0928,0 0 0
UCAACGAGCG,0.196,0.678 0.413 0.516,0.0552 0.101 0.0696,0 0 0
UCAACGAGGG,0.0915,0.139 0.0539 0.0369,0.0276 0 0,0 0 0
UCAACGAGUG,0.222,0.139 0.0898 0.166,0 0 0,0 0 0
UCAACGAUAG,0.209,0.226 0.162 0.184,0 0 0.0696,0 0 0
UCAACGAUCG,0.209,0.0521 0.0539 0.0738,0.0276 0 0,0 0 0
UCAACGAUGG,0.248,0.139 0.0539 0,0 0 0,0 0 0
UCAACGAUUG,0.314,0.104 0.180 0.129,0 0 0,0 0 0
UCAACGCAAG,0.105,0.904 0.557 0.627,0 0.101 0.116,0 0 0.0205
UCAACGCACG,0.157,0.695 0.754 0.516,0.0276 0 0.0696,0 0 0
UCAACGCAGG,0.183,0.0695 0.108 0.0738,0 0 0.0232,0 0.0808 0.0410
UCAACGCAUG,0.144,0.156 0.0539 0.0369,0 0 0,0.0180 0.0404 0.0615
UCAACGCCAG,0.183,0.747 0.701 0.479,0.166 0.126 0,0 0 0
UCAACGCCCG,0.222,0.0869 0.0719 0,0 0 0.0464,0 0 0
UCAACGCCGG,0.0784,0.0869 0.0539 0.0553,0 0 0,0 0 0
UCAACGCCUG,0.183,0.122 0.126 0.111,0 0 0,0 0 0
UCAACGCGAG,0.157,0.313 0.144 0.0922,0.248 0.101 0.0464,0 0 0
UCAACGCGAU,0.0131,0.0348 0.0539 0.129,0 0 0.0232,0 0 0
UCAACGCGCG,0.144,0.608 0.701 0.479,0.0828 0.177 0.162,0 0 0
UCAACGCGGG,0.222,0.0869 0.108 0.0553,0 0 0.0464,0 0 0
UCAACGCGUG,0.157,0.0695 0.0539 0.0922,0 0 0.0464,0 0 0.0205
UCAACGCUAG,0.0784,0.747 0.575 0.590,0.221 0.101 0.0696,0 0 0
UCAACGCUCG,0.261,0.191 0.108 0.0922,0 0 0,0 0 0
UCAACGCUGG,0.131,0.0869 0.0359 0.0922,0.0276 0 0,0 0 0
UCAACGCUUG,0.235,0.139 0.126 0.0184,0 0 0,0 0 0
UCAACGGAAG,0.0392,0.626 0.539 0.516,0.138 0.0252 0.0696,0 0 0
UCAACGGACG,0.157,0.834 0.701 0.996,0.221 0.202 0.0696,0.0180 0.0606 0.0410
UCAACGGAGG,0.170,0.156 0.108 0.0553,0 0 0.0232,0 0.0606 0
UCAACGGAUG,0.157,0.0869 0.0898 0.0922,0.0552 0 0,0.0180 0.0202 0

3 of these entries, quoted again:

- UCAACGCCAG (pool 0.183) -> IR 0.747 0.701 0.479; LM 0.166 0.126 0; Sys 0 0 0
- UCAACGCGAU (pool 0.0131) -> IR 0.0348 0.0539 0.129; LM 0 0 0.0232; Sys 0 0 0
- UCAACGCCUG (pool 0.183) -> IR 0.122 0.126 0.111; LM 0 0 0; Sys 0 0 0

Sequences that differ at fixed positions probably stem from PCR or sequencing errors, and defective variants can be carried along by functional ones. Samples held 36,220 to 57,551 reads, so the smallest values rest on one or two reads. Wild type was 20.7 per thousand in the pool and the most common sequence in every sample (inoculated region 195, 198, 203; leaf margin 629, 591, 734; systemic leaves 942, 870, 868).